Measured values from several laboratories, pooled; numbers as filed in NIAID ChemDB.

Common to all: tests in culture; agent: HIV-1; read-out: EC90

Neighbouring rows are from separate reports. ECn: concentration that inhibits the pathogen or its effect by n%. Blank or dashed fields: not listed here.

SMILES | cell line | read by | strain | changes | value
COC(=O)[C@H](C)NP(=O)(OC[C@@H]1OC[C@H](n2cc(C)c(=O)[nH]c2=O)O1)Oc1ccc(Cl)cc1 | PBMC | RT activity | LAI | RT-M184V | 0.62 µM
O=C(O)c1cc(-n2cccc2)ccc1Cl | MT-2 | p24 | RF X4 CLADE B | - | 8.73 µM
O=C(c1ccccc1)N(CCc1ccccc1)C[C@H](O)CN(CC1CCCC1)S(=O)(=O)Cc1cnc[nH]1 | CEM | p24 | IIIB | - | 1 µM
Cc1cn([C@H]2CO[C@@H](COP(=O)(N[C@@H](C)C(=O)OCc3ccccc3)Oc3ccc(Br)cc3)O2)c(=O)[nH]c1=O | PBMC | RT activity | LAI | RT-M184V | 8.9 µM
CC(=O)Nc1nc(C)c(S(=O)(=O)N(CC2CCCC2)C[C@@H](O)CN(CCc2ccccc2)C(=O)c2ccccc2)s1 | CEM | p24 | IIIB | - | 1 µM
CCCOP(=O)(OCCC)OC[C@@H]1CC[C@H](n2cnc3c(N)nccc32)O1 | MT-4 | syncytia | IIIB | - | 20 µM
CC(C)(C)C(=O)OCOP(=O)(CC[C@H]1O[C@@H](n2cnc3c(N)ncnc32)[C@](C)(F)[C@@H]1O)OCOC(=O)C(C)(C)C | PBMC | PCR | LAI | - | >100 µM
O=C1Nc2ccc(F)c(F)c2[C@@](/C=C/C2CC2)(C(F)(F)F)N1 | - | - | - | RT-G190S | ~0.125 µM
COc1ccnc2[nH]cc(C(=O)C(=O)N3C4CC3CN(C(=O)c3ccccc3)C4)c12 | TZM-bl | luciferase | QH0692 | - | >>250 µM
CCCCCCCCCCCCCCCCOCCCOP(=O)(O)OC[C@@H]1OC[C@H](n2cc(C)c(=O)[nH]c2=O)O1 | PBMC | RT activity | LAI | RT-M184V | 15.4 µM
COc1ccc(S(=O)(=O)N(CC2CCCC2)C[C@@H](O)CN(CCc2ccccc2)C(=O)c2ccccc2)cc1 | CEM | p24 | IIIB | - | 0.1 µM
Cc1cn([C@H]2C=C[C@@H](CO)O2)c(=O)[nH]c1=O | MT-4 | p24 | XM-ABC-resistant | RT-K65R L74V M184V Y115F | 0.8 µM
Nc1nccc2c1ncn2[C@H]1C=C[C@@H](CO)O1 | MT-4 | syncytia | IIIB | - | >100 µM
Nc1nc(NC2CC2)c2ncn([C@H]3C=C[C@@H](CO)C3)c2n1 | PBMC | p24 | XM-ABC-resistant | RT-K65R L74V M184V Y115F | 87 µM
COc1ccnc2[nH]cc(C(=O)C(=O)N3CCN(C(=O)c4ccccc4)C[C@H]3C)c12 | TZM-bl | luciferase | PVO | - | 0.22 µM
CCCCCCCCCCCCCCCCCCOCCOP(=O)(O)OC[C@@H]1OC[C@H](n2cc(C)c(=O)[nH]c2=O)O1 | PBMC | RT activity | LAI | RT-M184V | 3.6 µM
COc1ccc(S(=O)(=O)N(CC(C)C)C[C@@H](O)CCN(CC2CCCC2)S(=O)(=O)C2SC(NC(C)=O)=NC2C)cc1 | CEM | p24 | IIIB | - | 1 µM
COC(=O)[C@H](NP(=O)(OC[C@@H]1OC[C@H](n2cc(C)c(=O)[nH]c2=O)O1)Oc1ccccc1)C(C)C | PBMC | RT activity | LAI | RT-M184V | 82.8 µM
CC(C)(C)C(=O)OCOP(=O)(CC[C@H]1O[C@@H](n2ccc(N)nc2=O)[C@](C)(F)[C@@H]1O)OCOC(=O)C(C)(C)C | PBMC | PCR | LAI | - | >100 µM
CC(C)CN(CC(O)C(=O)N1CSC[C@H]1C(=O)NC(C)(C)C)S(=O)(=O)c1ccccc1 | CEM | p24 | IIIB | - | 1 µM
O=C1Nc2ccc(Cl)cc2[C@@](C#CC2CC2)(C(F)(F)F)N1 | - | - | - | RT-K103N | 0.01 µM

For reference, 2 entries again:

| SMILES | cell line | read by | strain | changes | value |
|---|---|---|---|---|---|
| O=C1Nc2ccc(F)c(F)c2[C@@](/C=C/C2CC2)(C(F)(F)F)N1 | - | - | - | RT-G190S | ~0.125 µM |
| O=C1Nc2ccc(Cl)cc2[C@@](C#CC2CC2)(C(F)(F)F)N1 | - | - | - | RT-K103N | 0.01 µM |